Target: HIV-1 89.6 envelope glycoprotein (Env) trimer expressed on 293T cells, lacking cytoplasmic residues 732 to 876 (HIV-1 isolate 89.6) (UniProt Q73372)
Test: flow cytometry on 293T cells expressing Env, anti-human Fc secondary antibody

eCD4-Ig (fusion 3; CCR5mim1 fused to the carboxyl terminus of CD4-Ig) (Fc fusion)
bound protein at saturation, less than CD4-Ig (fraction less bound protein than CD4-Ig): 0.33

From patent US20160340405A1
